Fitness of HIV-1 LAI Vif variants in SupT1-APOBEC3G cells

Reference: Langley et al. 2025, preprint, doi:10.1101/2025.10.20.683452.

Scanned stretch, residues 12 to 115 of Vif from HIV-1 LAI (a laboratory-adapted subtype B strain):
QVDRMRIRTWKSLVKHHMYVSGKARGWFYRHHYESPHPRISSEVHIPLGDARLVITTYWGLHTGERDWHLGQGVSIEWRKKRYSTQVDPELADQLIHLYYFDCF

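A pool of vif mutants was passaged twice, 72 h each, on SupT1 cells that express APOBEC3G. Frequencies after the second round, in three biological replicates, were compared with the merged pool after the first round. Changes do not touch integrase, since the pol overlap was removed.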

Values are log2 enrichment relative to wild type (0); lower means weaker defence against APOBEC3G and poorer growth.
A change reads original residue, position, new residue.
All changes here are to arginine.
The median of three replicates is given.
Input reads are the counts in the merged round-one pool, before selection.
The scan is noisy: the rank correlation of replicates is about 0.4 to 0.65, and variants with under about 50 input reads tend to read too high.
Some changes are missing from the data or left out.
Positive scores are uncertain; some enriched variants did not exclude APOBEC3G in a separate test.

Q12R (input reads 31) gave -0.64. For V13R (input reads 61) the result was 0.62. For D14R (input reads 880) the result was -1.79. M16R (input reads 478) read -2.97. I18R (input reads 69) gave 0.43. T20R (input reads 88) gave 1.15. With K22R (input reads 1204) the assay gave -1.10. S23R (input reads 719) read 0.80. With K26R (input reads 89) the assay gave 0.29.

With H27R (input reads 19) the assay gave 2.28. H28R (input reads 468) read -3.97. M29R (input reads 485) read -3.29. For Y30R (input reads 61) the result was -0.14. V31R (input reads 849) gave -0.70. S32R (input reads 207) gave -2.02. G33R (input reads 361) read -0.36. K34R (input reads 286) gave 3.15. For A35R (input reads 396) the result was -1.20.

For G37R (input reads 1099) the result was -1.59. F39R (input reads 497) gave 0.76. Y40R (input reads 1437) read -3.00. With H42R (input reads 62) the assay gave 1.48. H43R (input reads 400) gave -0.87. Y44R (input reads 453) gave -2.75. With E45R (input reads 754) the assay gave -1.77. With S46R (input reads 1083) the assay gave 1.73. P47R (input reads 21) read 2.39.

With P49R (input reads 89) the assay gave 0.08. S52R (input reads 532) gave -1.60. With S53R (input reads 644) the assay gave -1.79. For I57R (input reads 466) the result was -0.44. With L59R (input reads 101) the assay gave 2.83. D61R (input reads 810) read -1.38. For A62R (input reads 492) the result was -2.64. V65R (input reads 292) gave -1.86. For T67R (input reads 22) the result was 0.23.

With T68R (input reads 48) the assay gave 0.49. With Y69R (input reads 1149) the assay gave -3.90.